Data from paper PMC4538827.

Legend:
[1] = test system: σNS (sigma NS) (Avian reovirus strain 1733); experiment: single-molecule FRET (ALEX); conditions: unwinding, up to 20 uM σNS, 37 C; recombinant protein; protein details: His-tag (pET-15b) removed with thrombin; label: 5' AF488, 3' Texas Red; folded or branched DNA
[2] = test system: σNS (sigma NS) (Avian reovirus strain 1733); experiment: native ESI-MS; conditions: hexamer with 1 or 2 RNAs; recombinant protein; protein details: His-tag (pET-15b) removed with thrombin
[3] = test system: σNS (sigma NS) (Avian reovirus strain 1733); experiment: SEC; conditions: recombinant protein; protein details: His-tag (pET-15b) removed with thrombin; label: AF488 3' end (Methods)
[4] = test system: σNS (sigma NS) (Avian reovirus strain 1733); experiment: FCS; conditions: Rh 3.6 to 4.8 nm at 0.5-1 uM, 5.9 nm at 5-10 uM σNS; recombinant protein; protein details: His-tag (pET-15b) removed with thrombin; label: AF488; letters put together from the description
[5] = test system: σNS (sigma NS) (Avian reovirus strain 1733); experiment: analytical ultracentrifugation (SV); conditions: 13S and 18S complexes, 1:1 and 2:1 hexamer:RNA; recombinant protein; protein details: His-tag (pET-15b) removed with thrombin; label: AF488; letters put together from the description

ATAGGTATAACAGTTAACGTATGCTATACGCTAATAGCATACGTTT [46-nt stem-loop]
binding result [1]: binds

GACCUAUUCUCUUUUUCUCU [20-nt RNA, unlabelled]
binding result [2]: binds

GACCUAUUCUCUUUUUCUCUCCUUUUCCCC [30-nt RNA]
binding result [3]: binds

GGGAGACCUAUUCUCUUUUUCUCUCCUUUUCCCCCCUGUUGCUUUAUUUUCCUUCUUUGCCUUUUUCUCUCUUUUUUUUUCUUUUUUCCCUUUCUGCUUUCCUCCCCUAUUCUCCCCUCUU [120-nt RNA]
binding result [4]: binds
binding result [5]: binds

The exact form of at least one protein or probe is not confirmed.
